Measured values from several laboratories, pooled; numbers as filed in NIAID ChemDB.

Blank or dashed fields: not listed here. ECn: concentration that inhibits the pathogen or its effect by n%. ICn is the concentration giving n% inhibition. Rows are shuffled and stem from different studies. Inhibition is in % at the dose shown (toxicity tests: loss of growth or viability).

O=C(O)CCc1cccc(NC(=O)c2ccc3c(c2)nc(-c2ccoc2)n3C2CCCCC2)c1 ; endpoint: IC50 ; kind: target ; species: Poliovirus ; target: RNA-dependent RNA polymerase ; result: >25 µM
CCCCCCCCCCCCCCCCCC(=O)OC[C@@H](COP(=O)(O)OCCNCCO[C@@]1(C(=O)O)O[C@@H]([C@H](O)[C@H](O)CO)[C@H](NC(C)=O)[C@@H](O)[C@H]1F)OC(=O)CCCCCCCCCCCCCCCCC ; strain: H7N2 A/DUCK/47/5/76 ; endpoint: IC50 ; kind: target ; species: Influenza A virus ; target: Sialidase ; result: 200 µM
CCCCCCCCCCCCCCCCCC(=O)OC[C@@H](COP(=O)(O)OCCNCCO[C@@]1(C(=O)O)O[C@@H]([C@H](O)[C@H](O)CO)[C@H](NC(C)=O)[C@@H](O)[C@H]1F)OC(=O)CCCCCCCCCCCCCCCCC ; strain: H10N1 A/DUCK/HK/33/76 ; endpoint: IC50 ; kind: target ; species: Influenza A virus ; target: Sialidase ; result: 500 µM
Nc1ncnc2c1ncn2C[C@@H](CO)OCP(=O)(O)O ; endpoint: EC50 ; kind: culture ; species: Monkeypox virus ; cells: VERO ; result: 10.9 µg/mL
CCCCCCCCCCCCC/C=C/[C@@H](O)[C@H](CO[C@@H]1O[C@H](CO)[C@H](O)[C@H](OS(=O)(=O)O)[C@H]1O)NC(=O)CCCCCCCCCCCCCCCCCCCCCCC ; strain: H1N1 A/swine/Wisconsin/15/30 ; endpoint: inhibition ; kind: target ; dose: 200 µM ; species: Influenza A virus ; target: Sialidase ; result: 80.1%
Nc1nc(=O)n([C@@H]2C=C(CO)[C@@H](O)[C@H]2O)cc1F ; strain: MPX ; endpoint: EC50 ; kind: culture ; species: Monkeypox virus ; cells: VERO ; result: 2.05 µg/mL
O=C(NCc1ccccc1)c1ccc2c(c1)nc(-c1ccoc1)n2C1CCCCC1 ; endpoint: IC50 ; kind: target ; species: Poliovirus ; target: RNA-dependent RNA polymerase ; result: >25 µM
Cn1cc(NC(=O)c2cc(NC(=O)CN=C(N)N)cn2C)c(C(=O)NCCC(=N)N)c1 ; strain: Noguchi ; endpoint: inhibition ; kind: culture ; dose: 25 µg/mL ; species: Vaccinia virus ; cells: BSC-1 ; result: 32%
O=c1[nH]cnc2c1ncn2[C@@H]1C=C(CO)[C@@H](O)[C@H]1O ; strain: BSH ; endpoint: EC50 ; kind: culture ; species: Variola virus ; cells: VERO ; result: >100 µg/mL
CC(C)CCc1nc2cc(C(=O)N[C@@H](Cc3c[nH]c4ccc(O)cc34)C(=O)O)ccc2n1C1CCCCC1 ; endpoint: IC50 ; kind: target ; species: Poliovirus ; target: RNA-dependent RNA polymerase ; result: >25 µM
Nc1ccn(C[C@H]2COP(=O)(O)CO2)c(=O)n1 ; strain: Isolate Rafig Lahore ; endpoint: EC50 ; kind: culture ; species: Variola virus ; cells: VERO ; result: 18 µg/mL
COc1ccc(CCNC(=O)c2ccc3c(c2)nc(-c2ccc(O)cc2)n3C2CCCCC2)cc1OC ; endpoint: IC50 ; kind: target ; species: Poliovirus ; target: RNA-dependent RNA polymerase ; result: >25 µM
Nc1ccn(C[C@@H](CO)OCP(=O)(O)O)c(=O)n1 ; strain: Isolate V68059 ; endpoint: EC50 ; kind: culture ; species: Variola virus ; cells: VERO ; result: 13 µg/mL
Cn1cc(NC(=O)c2cc(NC(=O)c3cc(NC=O)cn3C)cn2C)cc1C(=O)NCCC(=N)N ; strain: Noguchi ; endpoint: inhibition ; kind: culture ; dose: 75 µg/mL ; species: Vaccinia virus ; cells: BSC-1 ; result: 100%
O=C(N[C@@H](Cc1ccc(OCc2nn[nH]n2)cc1)C(=O)O)c1ccc2c(c1)nc(-c1ccoc1)n2C1CCCCC1 ; endpoint: IC50 ; kind: target ; species: Poliovirus ; target: RNA-dependent RNA polymerase ; result: >25 µM

The first 2 rows once more:

SMILES	strain	endpoint	kind	dose	species	cells	target	result
O=C(O)CCc1cccc(NC(=O)c2ccc3c(c2)nc(-c2ccoc2)n3C2CCCCC2)c1	-	IC50	target	-	Poliovirus	-	RNA-dependent RNA polymerase	>25 µM
CCCCCCCCCCCCCCCCCC(=O)OC[C@@H](COP(=O)(O)OCCNCCO[C@@]1(C(=O)O)O[C@@H]([C@H](O)[C@H](O)CO)[C@H](NC(C)=O)[C@@H](O)[C@H]1F)OC(=O)CCCCCCCCCCCCCCCCC	H7N2 A/DUCK/47/5/76	IC50	target	-	Influenza A virus	-	Sialidase	200 µM